# From patent US20190330275A1, “NOVEL MUTANT OF a-CONOTOXIN PEPTIDE TxID, PHARMACEUTICAL COMPOSITION AND USE THEREOF” (priority 2016, published 2019)
# Biological target: rat α6/α3β4 nicotinic acetylcholine receptor (rat) (UniProt P12392)
# Test: cell-based or functional assay
Substance,"IC50 (half-blocking dose), ACh-evoked current [µM]","IC50 (half-blocking dose), ACh-evoked current, re-assay [µM]",block of ACh-evoked current at 10 µM peptide (fraction of the control current)
TxID[S9D],> 10,> 10,–
TxID[S9E],> 10,> 10,–
TxID[S9K],> 10,> 10,< 0.25
